# Test system: E. coli O157:H7
# Test: E. coli O157:H7 counts in water with rumen content treated with chlorine
# Conditions: for E. coli O157:H7 (log10 cfu/ml) at min: 0 / E. coli O157:H7 (log10 cfu/ml) at min: 1 / E. coli O157:H7 (log10 cfu/ml) at min: 5 / E. coli O157:H7 (log10 cfu/ml) at min: 10 / E. coli O157:H7 (log10 cfu/ml) at min: 20: 5 ppm chlorine; for E. coli O157:H7 (log10 cfu/ml) at min: 0: 0 min; for E. coli O157:H7 (log10 cfu/ml) at min: 1: 1 min; for E. coli O157:H7 (log10 cfu/ml) at min: 5: 5 min; for E. coli O157:H7 (log10 cfu/ml) at min: 10: 10 min; for E. coli O157:H7 (log10 cfu/ml) at min: 20: 20 min
# [1] = Water (control, no rumen content), 21° C.
# [2] = water:rumen content 10:1, 21° C.
# [3] = water:rumen content 25:1, 21° C.
# [4] = water:rumen content 50:1, 21° C.
# [5] = water:rumen content 100:1, 21° C.
substance,measurement,setting,value
chlorine,killing of 10^6-10^7 E. coli O157:H7/ml,"5 ppm chlorine in water, no rumen content",undetectable levels
same,E. coli O157:H7 (log10 cfu/ml) at min: 0,[1],<1.7 log10 cfu/ml
same,E. coli O157:H7 (log10 cfu/ml) at min: 1,[1],<1.7 log10 cfu/ml
same,E. coli O157:H7 (log10 cfu/ml) at min: 5,[1],<1.7 log10 cfu/ml
same,E. coli O157:H7 (log10 cfu/ml) at min: 10,[1],<1.7 log10 cfu/ml
same,E. coli O157:H7 (log10 cfu/ml) at min: 20,[1],<1.7 log10 cfu/ml
same,E. coli O157:H7 (log10 cfu/ml) at min: 0,[2],6.4 log10 cfu/ml
same,E. coli O157:H7 (log10 cfu/ml) at min: 1,[2],6.4 log10 cfu/ml
same,E. coli O157:H7 (log10 cfu/ml) at min: 5,[2],6.6 log10 cfu/ml
same,E. coli O157:H7 (log10 cfu/ml) at min: 10,[2],6.7 log10 cfu/ml
same,E. coli O157:H7 (log10 cfu/ml) at min: 20,[2],6.7 log10 cfu/ml
same,E. coli O157:H7 (log10 cfu/ml) at min: 0,[3],6.4 log10 cfu/ml
same,E. coli O157:H7 (log10 cfu/ml) at min: 1,[3],6.5 log10 cfu/ml
same,E. coli O157:H7 (log10 cfu/ml) at min: 5,[3],6.6 log10 cfu/ml
same,E. coli O157:H7 (log10 cfu/ml) at min: 10,[3],6.5 log10 cfu/ml
same,E. coli O157:H7 (log10 cfu/ml) at min: 20,[3],6.5 log10 cfu/ml
same,E. coli O157:H7 (log10 cfu/ml) at min: 0,[4],7.2 log10 cfu/ml
same,E. coli O157:H7 (log10 cfu/ml) at min: 1,[4],7.0 log10 cfu/ml
same,E. coli O157:H7 (log10 cfu/ml) at min: 5,[4],7.1 log10 cfu/ml
same,E. coli O157:H7 (log10 cfu/ml) at min: 10,[4],7.0 log10 cfu/ml
same,E. coli O157:H7 (log10 cfu/ml) at min: 20,[4],7.1 log10 cfu/ml
same,E. coli O157:H7 (log10 cfu/ml) at min: 0,[5],5.6 log10 cfu/ml
same,E. coli O157:H7 (log10 cfu/ml) at min: 1,[5],5.6 log10 cfu/ml
same,E. coli O157:H7 (log10 cfu/ml) at min: 5,[5],5.6 log10 cfu/ml
same,E. coli O157:H7 (log10 cfu/ml) at min: 10,[5],5.8 log10 cfu/ml
same,E. coli O157:H7 (log10 cfu/ml) at min: 20,[5],5.6 log10 cfu/ml
same,effect on killing E. coli O157:H7,"chlorine 5 ppm, rumen content at ratios of 50:1 and higher",minimal effect
